Source: paper PMC7661526, “Antibiofilm effects of N,O-acetals derived from 2-amino-1,4-naphthoquinone are associated with downregulation of important global virulence regulators in methicillin-resistant Staphylococcus aureus” (Scientific Reports, 2020)

Each compound was assayed on Vero cell line (assay: Cytotoxicity assay (MTT)). Details: SI = CC50/MIC; Vero cells.
Method: Plates were incubated for 1 h, the supernatant again removed, and 200 µL dimethyl sulfoxide (DMSO) were added to each well to dissolve the formazan crystals for 10 min. Absorbance was measured at 570 nm using an ELISA reader (Thermo Plate, TP-READER, Thermo Fisher Scientific). […] The selectivity index (SI) was calculated as follows: SI (µg/mL) = CC50/MIC[17]. Three independent experiments were performed in triplicate. Controls were performed using 2% (v/v) DMSO only.

Row | Compound | SI
1 | NC1=CC(=O)c2ccccc2C1=O [6a, 2-amino-1,4-naphthoquinone] | 0.76
2 | COCNC1=CC(=O)c2ccccc2C1=O [7a, 2-(methoxymethyl)-amino-1,4-naphthoquinone] | 0.61
3 | CCOCNC1=CC(=O)c2ccccc2C1=O [7b, 2-(ethoxymethyl)-amino-1,4-naphthoquinone] | 1.72
4 | C#CCOCNC1=CC(=O)c2ccccc2C1=O [7c, 2-(propynyloxymethyl)-amino-1,4-naphthoquinone] | 0.31
